# Assay results as given in US20240109955A1 (published 2024).
# B1: MX835 (other)
# chain 1: QTVVTQEPSFSVSPGGTVTLTCGLSSGSVSTAYFPSWYQQTPGQAPRTLIYGTNTRSSGVPDRFSGSILGNKAALTITGAQADDESDYYCVLYMGRGIVVFGGGTKLTVLGGSSGEIVLTQSPGTLSLSPGERATLSCRASQSVSSSYLAWYQQKPGQAPRLLIYSASSRATGIPDRFSGSGSGTDFTLTISRLEPEDFAVYFCQQYGGLTGWTFGQGTKVEIKGGGGSGGSGSGGGGSASGSGQMQLVQSGPEVKKPGTSVKVSCKASGFTFTSSAVQWVRQRQRLEWIGWIVVGSGNTNYAQKFQERVTITRDMSTSTAYMELSSLRSEDTAVYYCAAPNCSNVVCYDGFDIWGQGTMVTVSSGGSSGQVQLVESGGGVVQPGRSLRLSCAASGFTLSSYGMHWVRQAPGKGLEWVAVISYDGSNKYYVDSVKGRFTISRDNSKNTLYLQMNSLRAEDTAVYYCRWAYWELLPDYYYGMDVWGQGTTVTVSSASGGSGDKTHTCPPCPAPELLGGPSVFLFPPKPKDTLMISRTPEVTCVVVDVSHEDPEVKFNWYVDGVEVHNAKTKPREEQYNSYVVSVLTVLHQDWLNGKEYKCKVSNKALPAPIEKTISKAKGQPREPQVYTLPPCRDELTKNQVSLWCLVKGFYPSDIAVEWESNGQPENNYKTTPPVLDSDGSFFKKLTVDKSRWQQGNVFSCSVLHEALHSHYTQKSLSLSPG
# chain 2: EIVLTQSPGTLSLSPGERATLSCRASQSVSSSYLAWYQQKPGQAPRLLIYSASSRATGIPDRFSGSGSGTDFTLTISRLEPEDFAVYFCQQYGGLTGWTFGQGTKVEIKGGSSGDIQMTQSPSSVSASVGDRVIITCRASQGISSWLAWYQQKPGKAPKVLIYDASSLQSGVPSRFSGSGYGTDFTLTISSLQPEDSATYYCQQAKSFPITFGQGTRLEIKGGGGSGGSGSGGGGSASGSGQVQLVESGGGVVQPGRSLRLSCAASGFTFSSYAFHWVRQAPGKGLEWVAVISYDGSNQYYADSVKGRFTISRDNSKNTLYLQMNSLRADDTAVYYCARDLAIAVAGTWHYYNGMDVWGQGTTVTVSSGGSSGQMQLVQSGPEVKKPGTSVKVSCKASGFTFTSSAVQWVRQRQRLEWIGWIVVGSGNTNYAQKFQERVTITRDMSTSTAYMELSSLRSEDTAVYYCAAPNCSNVVCYDGFDIWGQGTMVTVSSASGGSGDKTHTCPPCPAPELLGGPSVFLFPPKPKDTLMISRTPEVTCVVVDVSHEDPEVKFNWYVDGVEVHNAKTKPREEQYNSYVVSVLTVLHQDWLNGKEYKCKVSNKALPAPIEKTISKAKGQPREPQVCTLPPSRDELTKNQVSLSCAVKGFYPSDIAVEWESNGQPENNYKTTPPVLDSDGSFFLVSKLTVDKSRWQQGNVFSCSVLHEALHSHYTQKSLSLSPG
# B2: MX838 (other)
# chain 1: QTVVTQEPSFSVSPGGTVTLTCGLSSGSVSTAYFPSWYQQTPGQAPRTLIYGTNTRSSGVPDRFSGSILGNKAALTITGAQADDESDYYCVLYMGRGIVVFGGGTKLTVLGGSSGEIVLTQSPGTLSLSPGERATLSCRASQSVSSSYLAWYQQKPGQAPRLLIYSASSRATGIPDRFSGSGSGTDFTLTISRLEPEDFAVYFCQQYGGLTGWTFGQGTKVEIKGGGGSGGSGSGGGGSASGSGQMQLVQSGPEVKKPGTSVKVSCKASGFTFTSSAVQWVRQRQRLEWIGWIVVGSGNTNYAQKFQERVTITRDMSTSTAYMELSSLRSEDTAVYYCAAPNCSNVVCYDGFDIWGQGTMVTVSSGGSSGQVQLVESGGGVVQPGRSLRLSCAASGFTLSSYGMHWVRQAPGKGLEWVAVISYDGSNKYYVDSVKGRFTISRDNSKNTLYLQMNSLRAEDTAVYYCRWAYWELLPDYYYGMDVWGQGTTVTVSSASGGSGDKTHTCPPCPAPELLGGPSVFLFPPKPKDTLMISRTPEVTCVVVDVSHEDPEVKFNWYVDGVEVHNAKTKPREEQYNSYVVSVLTVLHQDWLNGKEYKCKVSNKALPAPIEKTISKAKGQPREPQVYTLPPCRDELTKNQVSLWCLVKGFYPSDIAVEWESNGQPENNYKTTPPVLDSDGSFFKKLTVDKSRWQQGNVFSCSVLHEALHSHYTQKSLSLSPG
# chain 2: DIQMTQSPSSVSASVGDRVIITCRASQGISSWLAWYQQKPGKAPKVLIYDASSLQSGVPSRFSGSGYGTDFTLTISSLQPEDSATYYCQQAKSFPITFGQGTRLEIKGGSSGEIVLTQSPGTLSLSPGERATLSCRASQSVSSSYLAWYQQKPGQAPRLLIYSASSRATGIPDRFSGSGSGTDFTLTISRLEPEDFAVYFCQQYGGLTGWTFGQGTKVEIKGGGGSGGSGSGGGGSASGSGQMQLVQSGPEVKKPGTSVKVSCKASGFTFTSSAVQWVRQRQRLEWIGWIVVGSGNTNYAQKFQERVTITRDMSTSTAYMELSSLRSEDTAVYYCAAPNCSNVVCYDGFDIWGQGTMVTVSSGGSSGQVQLVESGGGVVQPGRSLRLSCAASGFTFSSYAFHWVRQAPGKGLEWVAVISYDGSNQYYADSVKGRFTISRDNSKNTLYLQMNSLRADDTAVYYCARDLAIAVAGTWHYYNGMDVWGQGTTVTVSSASGGSGDKTHTCPPCPAPELLGGPSVFLFPPKPKDTLMISRTPEVTCVVVDVSHEDPEVKFNWYVDGVEVHNAKTKPREEQYNSYVVSVLTVLHQDWLNGKEYKCKVSNKALPAPIEKTISKAKGQPREPQVCTLPPSRDELTKNQVSLSCAVKGFYPSDIAVEWESNGQPENNYKTTPPVLDSDGSFFLVSKLTVDKSRWQQGNVFSCSVLHEALHSHYTQKSLSLSPG
# B3: MX837 (other)
# chain 1: QTVVTQEPSFSVSPGGTVTLTCGLSSGSVSTAYFPSWYQQTPGQAPRTLIYGTNTRSSGVPDRFSGSILGNKAALTITGAQADDESDYYCVLYMGRGIVVFGGGTKLTVLGGSSGEIVLTQSPGTLSLSPGERATLSCRASQSVSSSYLAWYQQKPGQAPRLLIYSASSRATGIPDRFSGSGSGTDFTLTISRLEPEDFAVYFCQQYVGLTGWTFGQGTKVEIKGGGGSGGSGSGGGGSASGSGQMQLVQSGPEVKKPGTSVKVSCKASGFTFTSSAVQWVRQRQRLEWIGWIVVGSGNTNYAQKFQERVTITRDMSTSTAYMELSSLRSEDTAVYYCAAPNCSNVVCYDGFDIWGQGTMVTVSSGGSSGQVQLVESGGGVVQPGRSLRLSCAASGFTLSSYGMHWVRQAPGKGLEWVAVISYDGSNKYYVDSVKGRFTISRDNSKNTLYLQMNSLRAEDTAVYYCRWAYWELLPDYYYGMDVWGQGTTVTVSSASGGSGDKTHTCPPCPAPELLGGPSVFLFPPKPKDTLMISRTPEVTCVVVDVSHEDPEVKFNWYVDGVEVHNAKTKPREEQYNSYVVSVLTVLHQDWLNGKEYKCKVSNKALPAPIEKTISKAKGQPREPQVYTLPPCRDELTKNQVSLWCLVKGFYPSDIAVEWESNGQPENNYKTTPPVLDSDGSFFKKLTVDKSRWQQGNVFSCSVLHEALHSHYTQKSLSLSPG
# chain 2: DIQMTQSPSSVSASVGDRVIITCRASQGISSWLAWYQQKPGKAPKVLIYDASSLQSGVPSRFSGSGYGTDFTLTISSLQPEDSATYYCQQAKSFPITFGQGTRLEIKGGSSGEIVLTQSPGTLSLSPGERATLSCRASQSVSSSYLAWYQQKPGQAPRLLIYSASSRATGIPDRFSGSGSGTDFTLTISRLEPEDFAVYFCQQYVGLTGWTFGQGTKVEIKGGGGSGGSGSGGGGSASGSGQMQLVQSGPEVKKPGTSVKVSCKASGFTFTSSAVQWVRQRQRLEWIGWIVVGSGNTNYAQKFQERVTITRDMSTSTAYMELSSLRSEDTAVYYCAAPNCSNVVCYDGFDIWGQGTMVTVSSGGSSGQVQLVESGGGVVQPGRSLRLSCAASGFTFSSYAFHWVRQAPGKGLEWVAVISYDGSNQYYADSVKGRFTISRDNSKNTLYLQMNSLRADDTAVYYCARDLAIAVAGTWHYYNGMDVWGQGTTVTVSSASGGSGDKTHTCPPCPAPELLGGPSVFLFPPKPKDTLMISRTPEVTCVVVDVSHEDPEVKFNWYVDGVEVHNAKTKPREEQYNSYVVSVLTVLHQDWLNGKEYKCKVSNKALPAPIEKTISKAKGQPREPQVCTLPPSRDELTKNQVSLSCAVKGFYPSDIAVEWESNGQPENNYKTTPPVLDSDGSFFLVSKLTVDKSRWQQGNVFSCSVLHEALHSHYTQKSLSLSPG
# Columns and labels:
# Test in all cases: cell-based or functional assay
# [1] = molecular target: SARS-CoV-2 spike (S) protein, Omicron variant B.1.1.529 (SARS-CoV-2, UniProt P0DTC2 14-1273)
# [2] = molecular target: SARS-CoV-2 spike (S) protein, Omicron sublineage BA.1.1 (R346K) (SARS-CoV-2, UniProt P0DTC2 14-1273)
# [3] = molecular target: SARS-CoV-2 spike protein, Omicron sublineage BA.1.1 (R346K) (SARS-CoV-2, UniProt P0DTC2 14-1273)
# [4] = molecular target: SARS-CoV-2 spike protein, Omicron sublineage BQ.1.1 (R346T, K444T, F486V) (SARS-CoV-2, UniProt P0DTC2 14-1273)
# [5] = molecular target: SARS-CoV-2 spike protein, Omicron sublineage BF.7 (R346T, F486V) (SARS-CoV-2, UniProt P0DTC2 14-1273)
# [6] = molecular target: SARS-CoV-2 spike protein, Omicron sublineage BA.4.6 (R346T, F486V) (SARS-CoV-2, UniProt P0DTC2 14-1273)
binder,measurement,setting,value
B1,"IC50, pseudovirus neutralization",[1],1.43 nM
same,"IC80, pseudovirus neutralization",[1],4.85 nM
same,"IC50, pseudovirus neutralization",[2],6.52 nM
same,"IC80, pseudovirus neutralization",[2],11.7 nM
B2,"IC50, pseudovirus neutralization",[1],4.3 nM
same,"IC80, pseudovirus neutralization",[1],9.1 nM
same,"IC50, pseudovirus neutralization",[2],1.17 nM
same,"IC80, pseudovirus neutralization",[2],3.23 nM
B3,"IC50, pseudovirus neutralization",[3],9.72 nM
same,"IC80, pseudovirus neutralization",[3],11.4 nM
same,"IC50, pseudovirus neutralization",[4],4110 nM
same,"IC80, pseudovirus neutralization",[4],4630 nM
same,"IC50, pseudovirus neutralization",[5],40.5 nM
same,"IC80, pseudovirus neutralization",[5],125 nM
same,"IC50, pseudovirus neutralization",[6],32.9 nM
same,"IC80, pseudovirus neutralization",[6],95.5 nM
